Data from patent US4346087A, “Antibacterial surface active agent containing azaalkenelactam” (priority 1979, dated 1982).

Tests used:
[1] = Metal corrosion inhibition in brake fluid A, cast iron; details: 100°±2° C., 120±2 hours, blank -0.14
[2] = Metal corrosion inhibition in brake fluid A, aluminum; details: 100°±2° C., 120±2 hours, blank +0.07
[3] = Metal corrosion inhibition in brake fluid A, steel; details: 100°±2° C., 120±2 hours, blank -0.20
[4] = Metal corrosion inhibition in brake fluid A, copper; details: 100°±2° C., 120±2 hours, blank +0.18
[5] = Metal corrosion inhibition in brake fluid A, tin-plate; details: 100°±2° C., 120±2 hours, blank -0.15
[6] = Metal corrosion inhibition in brake fluid A, brass; details: 100°±2° C., 120±2 hours, blank -0.20
[7] = Table 5, carboxylate derivatives […] by weight in brake fluid A
[8] = Table 4, azaalkenelactams […] by weight in brake fluid A

For CCCCCCCCOCCCN1CC[N+](CC(=O)[O-])=C(C)CC1=O [4-octoxypropyl-7-methyl-1-azonia-4-azacyclohept-7-en-5-one-1-acetate], the “Weight change, cast iron” value [1, 7] was 0 mg/cm^2, the “Weight change, aluminum” value [2, 7] was “+0.01 mg/cm^2” and the “Weight change, steel” value [3, 7] was -0.03 mg/cm^2. For the same compound, the “Weight change, copper” value [4, 7] was “+0.01 mg/cm^2”, the “Weight change, tin-plate” value [5, 7] was -0.02 mg/cm^2 and the “Weight change, brass” value [6, 7] was -0.01 mg/cm^2.

For CCCCCCCCC=CCCCCCCCCN1CCCN=C(C)CC1=O [Example 4, 1-(9-octadecenyl)-4-methyl-3,6,7,8-tetrahydro-1,5-diazocin-2-one], the “Weight change, cast iron” value [1, 8] was -0.01 mg/cm^2, the “Weight change, aluminum” value [2, 8] was 0 mg/cm^2 and the “Weight change, steel” value [3, 8] was 0 mg/cm^2. The “Weight change, copper” value [4, 8] was “+0.02 mg/cm^2”, the “Weight change, tin-plate” value [5, 8] was -0.01 mg/cm^2 and the “Weight change, brass” value [6, 8] was -0.01 mg/cm^2.

For CCCCCCCCC=CCCCCCCCCN1CCN=CCCC1=O [Example 55, 4-(9-octadecenyl)-2,3,6,7-tetrahydro-1,4-diazocin-5-one], the “Weight change, cast iron” value [1, 8] was -0.02 mg/cm^2, the “Weight change, aluminum” value [2, 8] was “+0.02 mg/cm^2” and the “Weight change, steel” value [3, 8] was -0.01 mg/cm^2. For the same compound, the “Weight change, copper” value [4, 8] was “+0.01 mg/cm^2”, the “Weight change, tin-plate” value [5, 8] was 0 mg/cm^2 and the “Weight change, brass” value [6, 8] was -0.01 mg/cm^2.

For CCCCCCCC/C=C\CCCCCCCC(=O)OCCN1CC[N+](CC(=O)[O-])=C(C)CC1=O [4-oleoyloxyethyl-7-methyl-1-azonia-4-azacyclohept-7-en-5-one-1-acetate], the “Weight change, cast iron” value [1, 7] was 0 mg/cm^2, the “Weight change, aluminum” value [2, 7] was 0 mg/cm^2 and the “Weight change, steel” value [3, 7] was -0.02 mg/cm^2. The “Weight change, copper” value [4, 7] was “+0.02 mg/cm^2”, the “Weight change, tin-plate” value [5, 7] was -0.01 mg/cm^2 and the “Weight change, brass” value [6, 7] was -0.01 mg/cm^2.

In the case of CCCCCCCCCCCCCCCCCCCCCC(=O)OCCCN1CCCN=C(C)CC1=O [Example 25, 1-behenoyloxypropyl-4-methyl-3,6,7,8-tetrahydro-1,5-diazocin-2-one], the “Weight change, cast iron” value [1, 8] is reported as -0.01 mg/cm^2, the “Weight change, aluminum” value [2, 8] is reported as 0 mg/cm^2 and the “Weight change, steel” value [3, 8] is reported as -0.01 mg/cm^2. For the same compound, the “Weight change, copper” value [4, 8] was “+0.03 mg/cm^2”, the “Weight change, tin-plate” value [5, 8] was 0 mg/cm^2 and the “Weight change, brass” value [6, 8] was -0.03 mg/cm^2.

For “1-hydroxyethyl-2-undecylimidazolineumbetaine [reference compound]”, the “Weight change, cast iron” value [1, 7] was -0.12 mg/cm^2, the “Weight change, aluminum” value [2, 7] was “+0.10 mg/cm^2” and the “Weight change, steel” value [3, 7] was -0.16 mg/cm^2. The “Weight change, copper” value [4, 7] was -0.12 mg/cm^2, the “Weight change, tin-plate” value [5, 7] was -0.12 mg/cm^2 and the “Weight change, brass” value [6, 7] was -0.24 mg/cm^2.

In the case of CCCCCCCCCCCCCCCCCCCCCC(=O)OCCN1CC[N+](CC(=O)[O-])=CCCC1=O [4-behenoyloxyethyl-4-aza-1-azoniacyclooct-8-en-5-one-1-acetate], the “Weight change, cast iron” value [1, 7] is reported as -0.02 mg/cm^2, the “Weight change, aluminum” value [2, 7] is reported as “+0.01 mg/cm^2” and the “Weight change, steel” value [3, 7] is reported as -0.02 mg/cm^2. The “Weight change, copper” value [4, 7] was -0.01 mg/cm^2, the “Weight change, tin-plate” value [5, 7] was -0.01 mg/cm^2 and the “Weight change, brass” value [6, 7] was 0 mg/cm^2.

With CCCCCCCCCCCCCCNCCN1CC[N+](CC(=O)[O-])=CC(C)C1=O (stereo not drawn) [4-tetradecylaminoethyl-6-methyl-1-azonia-4-azacyclohept-7-en-5-one-1-acetate] the “Weight change, cast iron” value [1, 7] was 0 mg/cm^2, the “Weight change, aluminum” value [2, 7] was “+0.02 mg/cm^2” and the “Weight change, steel” value [3, 7] was -0.01 mg/cm^2. The “Weight change, copper” value [4, 7] was -0.01 mg/cm^2, the “Weight change, tin-plate” value [5, 7] was -0.02 mg/cm^2 and the “Weight change, brass” value [6, 7] was -0.02 mg/cm^2.

In the case of CCCCCCCCOCCCN1CCN=CC(C)(C)C1=O [Example 63, 4-octoxypropyl-6,6-dimethyl-3-hydro-2H-1,4-diazepin-5-one], the “Weight change, cast iron” value [1, 8] is reported as -0.02 mg/cm^2, the “Weight change, aluminum” value [2, 8] is reported as “+0.03 mg/cm^2” and the “Weight change, steel” value [3, 8] is reported as -0.01 mg/cm^2. For the same compound, the “Weight change, copper” value [4, 8] was “+0.02 mg/cm^2”, the “Weight change, tin-plate” value [5, 8] was -0.02 mg/cm^2 and the “Weight change, brass” value [6, 8] was -0.01 mg/cm^2.

For “4-methylbenzylpoly(2 moles)oxypropyleneoxypropyl-6-methyl-2,3,6,7-tetrahydro-1,4-diazocin-5-one [Example 67]”, the “Weight change, cast iron” value [1, 8] was -0.02 mg/cm^2, the “Weight change, aluminum” value [2, 8] was “+0.01 mg/cm^2” and the “Weight change, steel” value [3, 8] was -0.01 mg/cm^2. For the same compound, the “Weight change, copper” value [4, 8] was “+0.02 mg/cm^2”, the “Weight change, tin-plate” value [5, 8] was -0.01 mg/cm^2 and the “Weight change, brass” value [6, 8] was -0.02 mg/cm^2.

For CCCCCCCCCCCCOCCNCCN1CC[N+](CC(=O)[O-])=C(C)CC1=O [4-dodecoxyaminoethyl-7-methyl-1-azonia-4-azacyclohept-7-en-5-one-1-acetate], the “Weight change, cast iron” value [1, 7] was 0 mg/cm^2, the “Weight change, aluminum” value [2, 7] was 0 mg/cm^2 and the “Weight change, steel” value [3, 7] was -0.01 mg/cm^2. The “Weight change, copper” value [4, 7] was -0.01 mg/cm^2, the “Weight change, tin-plate” value [5, 7] was -0.02 mg/cm^2 and the “Weight change, brass” value [6, 7] was -0.01 mg/cm^2.

With CCCCCCCCOCCCN1CC[N+](CC(=O)[O-])=CC(C)(C)C1=O [4-oxtoxypropyl-6,6-dimethyl-1-azonia-4-azacyclohept-7-en-5-one-1-acetate] the “Weight change, cast iron” value [1, 7] was -0.03 mg/cm^2, the “Weight change, aluminum” value [2, 7] was “+0.01 mg/cm^2” and the “Weight change, steel” value [3, 7] was -0.02 mg/cm^2. The “Weight change, copper” value [4, 7] was 0 mg/cm^2, the “Weight change, tin-plate” value [5, 7] was -0.02 mg/cm^2 and the “Weight change, brass” value [6, 7] was -0.01 mg/cm^2.

With CCCCCCCCCCCCCCCCCCCCCCNCCN1CCN=C(C)CC1=O [Example 22, 4-docosylaminoethyl-7-methyl-3,6-dihydro-2H-1,4-diazepin-5-one] the “Weight change, cast iron” value [1, 8] was -0.03 mg/cm^2, the “Weight change, aluminum” value [2, 8] was “+0.01 mg/cm^2” and the “Weight change, steel” value [3, 8] was 0 mg/cm^2. The “Weight change, copper” value [4, 8] was “+0.01 mg/cm^2”, the “Weight change, tin-plate” value [5, 8] was 0 mg/cm^2 and the “Weight change, brass” value [6, 8] was -0.01 mg/cm^2.

In the case of CCCCCCCCCc1ccc(OCCOCCN2CCCN=C(C)CC2=O)cc1 [Example 7, 1-nonylphenylpoly(2 moles)oxyethyleneoxyethyl-4-methyl-3,6,7,8-tetrahydro-1,5-diazocin-2-one], the “Weight change, cast iron” value [1, 8] is reported as -0.01 mg/cm^2, the “Weight change, aluminum” value [2, 8] is reported as “+0.03 mg/cm^2” and the “Weight change, steel” value [3, 8] is reported as 0 mg/cm^2. The “Weight change, copper” value [4, 8] was “+0.01 mg/cm^2”, the “Weight change, tin-plate” value [5, 8] was 0 mg/cm^2 and the “Weight change, brass” value [6, 8] was -0.02 mg/cm^2.

For CCCCCCCCCCCCN1CCCN=CC(C)C1=O (stereo not drawn) [Example 44, 1-dodecyl-3-methyl-3,6,7,8-tetrahydro-1,5-diazocin-2-one], the “Weight change, cast iron” value [1, 8] was -0.01 mg/cm^2, the “Weight change, aluminum” value [2, 8] was “+0.02 mg/cm^2” and the “Weight change, steel” value [3, 8] was -0.01 mg/cm^2. The “Weight change, copper” value [4, 8] was “+0.03 mg/cm^2”, the “Weight change, tin-plate” value [5, 8] was 0 mg/cm^2 and the “Weight change, brass” value [6, 8] was -0.02 mg/cm^2.

In the case of CCCCCCCCCCCCN1CC[N+](CC(=O)[O-])=CC(C)C1=O (stereo not drawn) [4-dodecyl-6-methyl-1-azonia-4-azacyclohept-7-en-5-one-1-acetate], the “Weight change, cast iron” value [1, 7] is reported as -0.02 mg/cm^2, the “Weight change, aluminum” value [2, 7] is reported as “+0.01 mg/cm^2” and the “Weight change, steel” value [3, 7] is reported as -0.03 mg/cm^2. For the same compound, the “Weight change, copper” value [4, 7] was 0 mg/cm^2, the “Weight change, tin-plate” value [5, 7] was -0.02 mg/cm^2 and the “Weight change, brass” value [6, 7] was 0 mg/cm^2.

In the case of CCCCCCCCCCCCN1CCC[N+](CC(=O)[O-])=CC(C)C1=O (stereo not drawn) [1-dodecyl-3-methyl-1-aza-5-azoniacyclooct-4-en-2-one-5-acetate], the “Weight change, cast iron” value [1, 7] is reported as -0.03 mg/cm^2, the “Weight change, aluminum” value [2, 7] is reported as 0 mg/cm^2 and the “Weight change, steel” value [3, 7] is reported as -0.01 mg/cm^2. For the same compound, the “Weight change, copper” value [4, 7] was -0.01 mg/cm^2, the “Weight change, tin-plate” value [5, 7] was -0.03 mg/cm^2 and the “Weight change, brass” value [6, 7] was -0.01 mg/cm^2.

For CCCCCCCCCc1ccc(OCC(O)CNCCNCCNCCN2CC[N+](CC(=O)[O-])=C(C)CC2=O)cc1 (stereo not drawn) [4-nonylphenoxy(2-hydroxy)propylaminoethylaminoethylaminoethyl-7-methyl-1-azonia-4-azacyclohept-7-en-5-one-1-acetate], the “Weight change, cast iron” value [1, 7] was -0.02 mg/cm^2, the “Weight change, aluminum” value [2, 7] was “+0.02 mg/cm^2” and the “Weight change, steel” value [3, 7] was -0.02 mg/cm^2. For the same compound, the “Weight change, copper” value [4, 7] was “+0.01 mg/cm^2”, the “Weight change, tin-plate” value [5, 7] was -0.03 mg/cm^2 and the “Weight change, brass” value [6, 7] was -0.01 mg/cm^2.

In the case of CCCCCCCCCCCCCCC(O)CNCCN1CC[N+](CC(=O)[O-])=CC(C)(C)C1=O (stereo not drawn) [4-(2-hydroxyhexadecyl)aminoethyl-6,6-dimethyl-1-azonia-4-azacyclohept-7-en-5-one-1-acetate], the “Weight change, cast iron” value [1, 7] is reported as -0.01 mg/cm^2, the “Weight change, aluminum” value [2, 7] is reported as 0 mg/cm^2 and the “Weight change, steel” value [3, 7] is reported as -0.02 mg/cm^2. The “Weight change, copper” value [4, 7] was -0.02 mg/cm^2, the “Weight change, tin-plate” value [5, 7] was -0.02 mg/cm^2 and the “Weight change, brass” value [6, 7] was -0.02 mg/cm^2.

With CCCCCCCCCCCCCCC(O)CNCCN1CC[N+](CC(=O)[O-])=CCC(C)C1=O (stereo not drawn) [4-(2-hydroxyhexadecyl)aminoethyl-6-methyl-4-aza-1-azoniacyclooct-8-en-5-one-1-acetate] the “Weight change, cast iron” value [1, 7] was -0.01 mg/cm^2, the “Weight change, aluminum” value [2, 7] was “+0.02 mg/cm^2” and the “Weight change, steel” value [3, 7] was -0.02 mg/cm^2. The “Weight change, copper” value [4, 7] was -0.01 mg/cm^2, the “Weight change, tin-plate” value [5, 7] was -0.01 mg/cm^2 and the “Weight change, brass” value [6, 7] was 0 mg/cm^2.

For CCCCCCCCCCCCCCNCCN1CCN=CC(C)(C)C1=O [Example 58, 4-tetradecylaminoethyl-6,6-dimethyl-3-hydro-2H-1,4-diazepin-5-one], the “Weight change, cast iron” value [1, 8] was -0.01 mg/cm^2, the “Weight change, aluminum” value [2, 8] was 0 mg/cm^2 and the “Weight change, steel” value [3, 8] was -0.01 mg/cm^2. The “Weight change, copper” value [4, 8] was “+0.01 mg/cm^2”, the “Weight change, tin-plate” value [5, 8] was 0 mg/cm^2 and the “Weight change, brass” value [6, 8] was -0.01 mg/cm^2.
